Measured values from several laboratories, pooled; numbers as filed in NIAID ChemDB.

Common to all: growth or infection tests; organism: Mycobacterium tuberculosis

MIC50, MIC90 and the like: level of inhibition, or share of isolates inhibited. Lines come from different laboratories, so protocols vary. For "inactive" no cut-off is given. a–b is a range or a potency band. MIC bound comes from a single tested concentration. Blank or dashed fields: not listed here. Inhibition is in % at the dose shown (toxicity tests: loss of growth or viability).

SMILES,conditions,dose,mutations,strain,read by,endpoint,value
Cc1ccc2nc(C(=O)N/N=C/c3ccc(Oc4ccc(Cl)cc4Cl)cc3)[nH]c2c1,,,,H37Rv,resazurin,MIC,3.125 µg/mL
CO/N=C1/C(=O)N(CCOCCOCCOCCn2c(O)c(N=O)c3cc(F)ccc32)c2ccc(F)cc21,,,MDR,,visual reading,MIC,256 µg/mL
Cn1c([N+](=O)[O-])cnc1-c1nnc(SCc2ccc([N+](=O)[O-])cc2)s1,,,,H37Rv,,MIC,>6.25 µg/mL
N#Cc1c(N)sc2sc(-c3ccc(Cl)cc3)cc12,multidrug-resistant,,,MDR-TB,,MIC,21.5 µM
CC1=c2c(oc3cc(O)c(Nc4c(C)cc(O)cc4O)c(C)c23)=CC(=O)C1=Nc1c(C)cc(O)cc1O,,12.5 µg/mL,,H37Rv,BACTEC,inhibition,24%
O=[N+]([O-])c1ccc(Sc2ccc3ccccc3c2)c2ncccc12,,,,H37Rv,,MIC,40 µg/mL
CSC(=S)NN=C1CCCC1,,,,H37Rv,BACTEC,MIC bound,≤12.5 µg/mL
CC1COc2c(N3CCN(C)CC3)c(F)cc3c(=O)c(C(=O)O)cn1c23,,,,5 strains (ofloxacin-resistant),,MIC,5–10 µg/mL
O=C(N/N=C/c1ccc(Oc2cc(Cl)cc(Cl)c2)cc1)c1nc2ccccc2[nH]1,,,,H37Rv,resazurin,MIC,25 µg/mL
O=C(O)c1ccncc1,,,,H37Rv,resazurin,MIC,>25 µg/mL
COC(=O)c1ccc2oc3c(C(=O)OC)cccc3c(=O)c2c1,,32 µg/mL,,H37Rv,,inhibition,inactive
COc1nc2ccc(Br)cc2cc1[C@@H](c1ccccc1)[C@@](O)(CCN(C)C)c1cccc2ccccc12,,,,clinical isolate MAL010075,resazurin,MIC90,0.03125 µg/mL
O=C1c2ccccc2-n2c1nc1ccsc1c2=O,,,,MDR 10038,,MIC,5 µg/mL
C[N+](C)(C)/C=C/c1ccc([N+](=O)[O-])o1.[Br-],,,,H37Rv,BACTEC,MIC bound,>12.5 µg/mL
CO/N=C1/C(=O)N(CCOCCOCCOCCN2C(=O)C(=O)c3cc(C)ccc32)c2ccccc21,,,MDR,,visual reading,MIC,128 µg/mL
Cn1c2ccccc2c2nnc(N/N=C/c3cccnc3)nc21,,,,H37Rv,resazurin,MIC bound,>6.25 µg/mL
Cc1cc(C)c2nc3n(c(=O)c2c1)-c1ccc(F)cc1C3=O,,,,H37Rv,,MIC,<0.3 µg/mL
N=c1ncn(C2CCOC2=O)c2nc[nH]c12,,12.5 µg/mL,,H37Rv,BACTEC,inhibition,26%
Cc1cc(Oc2ccc(/C=N/NC(=O)c3nc4ccccc4[nH]3)cc2)ccc1Cl,,,,H37Rv,resazurin,MIC,3.125 µg/mL
CC1CCN(C(=S)S)CC1.CC1CCNCC1,,,,INH-r,,MIC,0.4 µg/mL
CCOC(=O)c1c(N)sc2sc(-c3ccc(C(C)C)cc3)cc12,,,,H37Rv,,MIC,2.3 µM
CO[C@H]1/C=C/O[C@@]2(C)Oc3c(C)c(O)c4c(O)c(c(/C=N/OCCCCC(Br)CBr)c(O)c4c3C2=O)NC(=O)/C(C)=C\C=C\[C@H](C)[C@H](O)[C@@H](C)[C@@H](O)[C@@H](C)[C@H](OC(C)=O)[C@@H]1C,,,,H37Rv,,MIC,0.5 µg/mL
C1CCNCC1.S=C(S)N1CCCCC1,,,,PAS-R,,MIC,3.1 µg/mL
CCOC(=O)c1c(N)sc2sc(-c3ccccc3)cc12,multidrug-resistant,,,MDR-TB,,MIC,41.2 µM
N#Cc1ccc2c(=O)c3ccccc3oc2c1,,8 µg/mL,,H37Rv,,inhibition,inactive
CO[C@H]1/C=C/O[C@@]2(C)Oc3c(C)c(O)c4c(O)c(c(/C=N/OCCN5CCCC5)c(O)c4c3C2=O)NC(=O)/C(C)=C\C=C\[C@H](C)[C@H](O)[C@@H](C)[C@@H](O)[C@@H](C)[C@H](OC(C)=O)[C@@H]1C,,,,H37Rv,,MIC,2 µg/mL
O=C(N/N=C/c1ccc(Oc2ccc(Cl)cc2Cl)cc1)c1nc2ccccc2[nH]1,,,,H37Rv,resazurin,MIC,12.5 µg/mL
CO[C@H]1/C=C/O[C@@]2(C)Oc3c(C)c(O)c4c(O)c(c(/C=N/N5CCN(C/C=C/c6ccccc6)CC5)c(O)c4c3C2=O)NC(=O)/C(C)=C\C=C\[C@H](C)[C@H](O)[C@@H](C)[C@@H](O)[C@@H](C)[C@H](OC(C)=O)[C@@H]1C,,,,Watanabe,,MIC,25 µg/mL
[CH3][Sn]1([CH3])[c]2ccccc2Oc2cccc[c]21,,,,H37Rv,BACTEC,MIC bound,>12.5 µg/mL
Nc1ccc(Sc2nc3ccccc3s2)c2ncccc12,,,,H37Rv,,MIC,40 µg/mL
CCCSc1nnc(-c2ccc([N+](=O)[O-])o2)s1,,6.25 µg/mL,,H37Rv,,inhibition,74%
Cc1cc(N)cc2c(=O)c3ccccc3oc12,,4 µg/mL,,H37Rv,,inhibition,inactive
CC(C)=CCc1cc(/C=C/C(=O)c2ccc(O)c(CC=C(C)C)c2O)ccc1O,,,,H37Rv,resazurin,MIC,19.53 µg/mL
CCO/N=C1/C(=O)N(CCOCCOCCOCCN2C(=O)C(=O)c3cc(F)ccc32)c2ccc(C)cc21,,,MDR,,visual reading,MIC,256 µg/mL
O=[N+]([O-])c1ccc(S(=O)(=O)c2ccc(Cl)cc2Cl)c2ncccc12,,,,H37Rv,,MIC,10 µg/mL
CCN(C)CCC(O)(c1ccc2ccccc2c1)C(c1ccccc1)c1cc2cc(Br)ccc2nc1OC,,,,H37Rv,,MIC90,0.03 µg/mL
CN1C(=O)CN2CCc3ccccc3C2c2cc(Cl)ccc21,,12.5 µg/mL,,H37Rv,BACTEC,inhibition,14%
O=C1c2ccc(Cl)cc2-n2c1nc1ccccc1c2=O,,,,H37Rv,,MIC,1 µg/mL
CCn1cc(C(=O)O)c(=O)c2cc(F)c(N3CCN(C)CC3)cc21,,,,H37Rv,,MIC,5 µg/mL
O=C1c2ccccc2-n2c1nc1ccc(Br)cc1c2=O,,,,H37Rv,,MIC,1.3 µg/mL
CCOC(=O)c1c(N)sc2sc(-c3ccc(Cl)cc3Cl)cc12,multidrug-resistant,,,MDR-TB,,MIC,4.2 µM
CN(C)c1ccc(/C=C/C(=O)c2ccc(Nc3ccnc4cc(Cl)ccc34)cc2)cc1,,12.5 µg/mL,,H37Rv,BACTEC,inhibition,0%
COc1nc2ccc(Br)cc2cc1C(c1ccccc1)C(O)(CCN1CCOCC1)c1ccccc1,,,,H37Rv,,MIC90,54.75 µg/mL
Cc1cc(NC(=S)SCc2ccc(Cl)cc2)ccc1Cl,,,,H37Rv,BACTEC,MIC bound,>12.5 µg/mL
O=[N+]([O-])c1ccc(SC2NC=CS2)c2ncccc12,,,,H37Rv,,MIC,10 µg/mL
COC(=O)c1cccc2c(=O)c3cc([N+](=O)[O-])ccc3oc12,,4 µg/mL,,H37Rv,,inhibition,inactive
COc1cc2c3c(c1O)C1(C=CC(=O)C=C1)C[C@@H]3N(C)CC2,,12.8 µg/mL,,H37Rv,BACTEC,inhibition,5%
Cc1cc(C)c2oc3ccccc3c(=O)c2c1,,32 µg/mL,,H37Rv,,inhibition,inactive
Cn1c([N+](=O)[O-])cnc1-c1nnc(SCc2cccc([N+](=O)[O-])c2)s1,,6.25 µg/mL,,H37Rv,,inhibition,0%
N#Cc1c(N)sc2sc(-c3ccccc3)cc12,,,,H37Rv,,MIC,97.5 µM
CO/N=C1/C(=O)N(CCOCCOCCOCCn2c(O)c(N=NC(N)=O)c3cc(F)ccc32)c2ccc(F)cc21,,,,H37Rv,visual reading,MIC,16 µg/mL
COc1nc2ccc(-c3ccc(CO)o3)cc2cc1C(c1ccccc1)C(O)(CCN(C)C)c1cccc2ccccc12,,,,H37Rv,,MIC90,9.08 µg/mL
C#CCSc1nnc(-c2ccc([N+](=O)[O-])o2)s1,,,,H37Rv,,MIC,1.56 µg/mL
C[C@@H]1CN(c2c(F)c(N)c3c(=O)c(C(=O)O)cn(C4CC4)c3c2F)C[C@H](C)N1,,,,19 strains,,MIC90,>0.25 µg/mL
CO[C@H]1/C=C/O[C@@]2(C)Oc3c(C)c(O)c4c(O)c(c(/C=N/OC(CC(C)C)C(=O)O)c(O)c4c3C2=O)NC(=O)/C(C)=C\C=C\[C@H](C)[C@H](O)[C@@H](C)[C@@H](O)[C@@H](C)[C@H](OC(C)=O)[C@@H]1C,,,,H37Rv,,MIC,>10 µg/mL
C[C@H]1COc2c(N3CCN(C)CC3)c(F)cc3c(=O)c(C(=O)O)cn1c23,,,INH RIF EMB resistant,Clinical isolate 19 RP,resazurin,MIC,0.25 µg/mL
O=c1cc(-c2ccc(O)c(O)c2-c2c(O)cc(O)c3c(=O)cc(-c4ccc(O)cc4)oc23)oc2cc(O)cc(O)c12,,,,MTCS2,resazurin,MIC,19.53 µg/mL
O=C1c2cccc(F)c2-n2c1nc1ccccc1c2=O,,,,H37Rv,,MIC,1 µg/mL
O=[N+]([O-])c1cccc(CSc2nnc(-c3ccc([N+](=O)[O-])o3)s2)c1,,,,H37Rv,,MIC,3.13 µg/mL
CCn1cc(C(=O)O)c(=O)c2cc(F)c(N3CCNCC3)cc21,,,,Isolate 870729,,MIC,2 µg/mL
O=[N+]([O-])c1ccc(Sc2ccccn2)c2ncccc12,,,,H37Rv,,MIC,40 µg/mL
CO[C@H]1/C=C/O[C@@]2(C)Oc3c(C)c(O)c4c(O)c(c(/C=N/OCCCCCCO)c(O)c4c3C2=O)NC(=O)/C(C)=C\C=C\[C@H](C)[C@H](O)[C@@H](C)[C@@H](O)[C@@H](C)[C@H](OC(C)=O)[C@@H]1C,,,,H37Rv,,MIC,0.5 µg/mL
O=C(c1ccccc1)c1ccc2nc(C(=O)N/N=C/c3ccc(Oc4ccc(Cl)cc4Cl)cc3)[nH]c2c1,,,,H37Rv,resazurin,MIC,12.5 µg/mL
O=Cc1ccc(CN2C(=O)c3ccccc3C2=O)o1,,,,H37Rv,BACTEC,MIC bound,>12.5 µg/mL
Cc1ccc2nc(C(=O)N/N=C/c3ccc(Oc4cc(Cl)cc(Cl)c4)cc3)[nH]c2c1,,,,H37Rv,resazurin,MIC,12.5 µg/mL
C#CCSc1nnc(-c2ncc([N+](=O)[O-])n2C)s1,,6.25 µg/mL,,H37Rv,,inhibition,0%
COc1nc2ccc(Br)cc2cc1C(c1ccccc1)C(O)(CCCN1CCCC1)c1cccc2ccccc12,,,,H37Rv,,MIC90,47.31 µg/mL
Nc1ccc(Sc2ccc(Cl)cc2Cl)c2ncccc12,,,,H37Rv,,MIC,0.02 µg/mL
COC12OCCN(C)C1=CC(=O)C1=NNC(C)C12,,12.5 µg/mL,,H37Rv,BACTEC,inhibition,-13%
O=[N+]([O-])c1ccccc1S(=O)(=O)c1ccc([N+](=O)[O-])c2cccnc12,,,,H37Rv,,MIC,100 µg/mL
O=C1c2cc(F)ccc2-n2c1nc1nccnc1c2=O,,,,H37Rv,,MIC,10 µg/mL
COc1nc2ccc(Br)cc2cc1C(c1ccccc1)C(O)(CCN1CCCCC1)c1ccc2cc(Br)ccc2c1,,,,H37Rv,,MIC90,67.45 µg/mL
O=C(O)CCCc1nc2c(n1Cc1ccccc1)C(=O)c1ccccc1C2=O,,12.5 µg/mL,,H37Rv,BACTEC,inhibition,0%
Cc1cc(C)cc(Oc2ccc(N)c3cccnc23)c1,,,,H37Rv,,MIC,0.1 µg/mL
NNC(=O)c1ccncc1,,,,H37Rv,resazurin,MIC,0.4 µg/mL
CC/C(=N\OCc1ccccc1)C(=O)NNS(=O)(=O)c1ccc(C)cc1,,,,H37Rv,BACTEC,MIC bound,>12.5 µg/mL
O=C1c2cc(F)ccc2-n2c1nc1cccc(F)c1c2=O,,,,H37Rv,,MIC,1 µg/mL
Cc1ccc(Oc2ccc(N)c3cccnc23)c(C)c1,,,,H37Rv,,MIC,1 µg/mL
O=C1C=C[C@@H](COC2OC(CO)C(O)C(O)C2O)O1,,,,KM-R,,MIC,6.3 µg/mL
CC1(C)S[C@@H]2[C@H](NC(=O)[C@H](N)c3ccccc3)C(=O)N2[C@H]1C(=O)O,,,,1789,,MIC,92 µM
CC1(C)C[C@H]2C=C(C=O)[C@]34C[C@]3(C(=O)O[C@@H]4O)[C@H]2C1,,12.5 µg/mL,,H37Rv,BACTEC,inhibition,11%
COC(=O)c1cccc2oc3ccccc3c(=O)c12,,16 µg/mL,,H37Rv,,inhibition,inactive
CN1C(=O)c2ccccc2NC(=O)[C@]12O[C@@H]2c1ccccc1,,,,H37Rv,BACTEC,MIC bound,>12.5 µg/mL
CCO/N=C1\C(=O)N(CCOCCOCCOCCN2C(=O)/C(=N/OC)c3cc(F)ccc32)c2ccc(F)cc21,,,MDR,,visual reading,MIC,128 µg/mL
CC12CCC3C(C1)C(C(=O)O2)C(=O)OC3(C)C,,12.5 µg/mL,,H37Rv,BACTEC,inhibition,14%
CN[C@@H]1[C@@H](O)[C@@H](O[C@@H]2[C@@H](O)[C@H](O[C@H]3O[C@H](CN)CC[C@H]3N)[C@@H](N)C[C@H]2N)OC[C@]1(C)O,,4 µg/mL,,H37Rv,,inhibition,inactive

8 of the rows above, restated:

SMILES,conditions,dose,mutations,strain,read by,endpoint,value
COc1nc2ccc(Br)cc2cc1C(c1ccccc1)C(O)(CCN1CCCCC1)c1ccc2cc(Br)ccc2c1,,,,H37Rv,,MIC90,67.45 µg/mL
CN(C)c1ccc(/C=C/C(=O)c2ccc(Nc3ccnc4cc(Cl)ccc34)cc2)cc1,,12.5 µg/mL,,H37Rv,BACTEC,inhibition,0%
CN1C(=O)CN2CCc3ccccc3C2c2cc(Cl)ccc21,,12.5 µg/mL,,H37Rv,BACTEC,inhibition,14%
O=Cc1ccc(CN2C(=O)c3ccccc3C2=O)o1,,,,H37Rv,BACTEC,MIC bound,>12.5 µg/mL
CO[C@H]1/C=C/O[C@@]2(C)Oc3c(C)c(O)c4c(O)c(c(/C=N/OCCCCC(Br)CBr)c(O)c4c3C2=O)NC(=O)/C(C)=C\C=C\[C@H](C)[C@H](O)[C@@H](C)[C@@H](O)[C@@H](C)[C@H](OC(C)=O)[C@@H]1C,,,,H37Rv,,MIC,0.5 µg/mL
COC12OCCN(C)C1=CC(=O)C1=NNC(C)C12,,12.5 µg/mL,,H37Rv,BACTEC,inhibition,-13%
N=c1ncn(C2CCOC2=O)c2nc[nH]c12,,12.5 µg/mL,,H37Rv,BACTEC,inhibition,26%
COc1nc2ccc(Br)cc2cc1C(c1ccccc1)C(O)(CCCN1CCCC1)c1cccc2ccccc12,,,,H37Rv,,MIC90,47.31 µg/mL